A mixed list of measured activities; the numbers were collected in NIAID ChemDB.

Common to all: whole-cell or culture tests

An empty or dashed field is not shown. ECn: concentration that inhibits the pathogen or its effect by n%. Lines come from different laboratories, so protocols vary. Inhibition is in % at the dose shown (toxicity tests: loss of growth or viability). MIC50, MIC90 and the like: level of inhibition, or share of isolates inhibited.

compound	organism	strain or isolate	read by	conditions	measure	tested at	result
O=c1[nH]c(=O)n([C@H]2C[C@H](F)[C@@H](CO)O2)cc1Br	Mycobacterium avium	ATCC 25291	-	-	EC50	-	>50 µg/mL
CC(=O)c1c(O)c(C)c(O)c2c1OC1=CC(=O)C(C(C)=O)C(=O)[C@@]12C	Mycobacterium aurum	-	-	-	MIC	-	32 µg/mL
NC[C@H]1O[C@H](O[C@H]2[C@H](O)[C@@H](O[C@H]3O[C@H](CO)[C@@H](O)[C@H](N)[C@H]3O)[C@H](N)C[C@@H]2N)[C@H](N)C[C@@H]1O	Mycobacterium fortuitum	31 isolates	-	-	MBC90	-	>64 µg/mL
Cc1ccc(-n2c(=S)oc3ccc(Br)cc3c2=S)cc1	Mycobacterium kansasii	6509/96	-	14 d	MIC	-	4 µM
C=Cc1cn([C@H]2C[C@H](O)[C@@H](CO)O2)c(=O)[nH]c1=O	Mycobacterium avium	ATCC 25291	-	-	EC50	-	>50 µg/mL
O=C(NNC(=O)c1ccncc1)Nc1ccc(Cl)c(C(F)(F)F)c1	Mycobacterium avium	MY330/88	broth dilution	21 d	MIC100	-	125 µM
CO[C@H]1/C=C/O[C@@]2(C)Oc3c(C)c(O)c4c(=O)c(c5oc6cc(N7CCN(CC(C)C)CC7)cc(=O)c6nc5c4c3=C2O)NC(=O)/C(C)=C\C=C\[C@H](C)[C@H](O)[C@@H](C)[C@@H](O)[C@@H](C)[C@H](OC(C)=O)[C@@H]1C	Mycobacterium ulcerans	ATCC 19423	-	-	MIC	-	0.025 µg/mL
CO[C@@H]1[C@H](O)[C@@H](CO)O[C@H]1n1cc(C)c(=O)[nH]c1=O	Mycobacterium avium	ATCC 25291	-	-	inhibition	50 µg/mL	0%
Fc1ccc(-n2c(=S)oc3ccc(Cl)cc3c2=S)cc1	Mycobacterium kansasii	My 235/80	-	21 d	MIC	-	16 µM
NCC[C@H](O)C(=O)N[C@@H]1C[C@H](N)[C@@H](O[C@H]2O[C@H](CN)[C@@H](O)[C@H](O)[C@H]2O)[C@H](O)[C@H]1O[C@H]1O[C@H](CO)[C@@H](O)[C@H](N)[C@H]1O	Mycobacterium abscessus	CIP 104536	broth dilution	-	MIC	-	32 µg/mL
C=C1C(=O)[C@@]23C(=O)O[C@H]4CCC(C)(C)[C@H]5C(=O)OC[C@@]45[C@@H]2CC[C@@H]1[C@H]3OC(=O)c1cc2ccccc2[nH]1	Mycobacterium phlei	ATCC 355	resazurin	-	MIC	-	0.5 µg/mL
O=C(NNC(=O)c1ccncc1)Nc1cc(Cl)cc(Cl)c1	Mycobacterium avium	MY330/88	broth dilution	21 d	MIC100	-	125 µM
C=C1C(=O)[C@@]23C(=O)O[C@H]4CCC(C)(C)[C@H]5[C@H](O)OC[C@@]45[C@@H]2CC[C@@H]1[C@H]3OC(=O)c1cc2ccccc2[nH]1	Mycobacterium phlei	ATCC 355	resazurin	-	MIC	-	1 µg/mL
CN[C@@H]1[C@H](O[C@H]2[C@H](O[C@H]3[C@H](O)[C@@H](O)[C@H](N=C(N)N)[C@@H](O)[C@@H]3N=C(N)N)O[C@@H](C)[C@]2(O)C=O)O[C@@H](CO)[C@H](O)[C@H]1O	Mycobacterium fortuitum	31 isolates	-	-	MBC90	-	>64 µg/mL
CO[C@H]1/C=C/O[C@@]2(C)Oc3c(C)c(O)c4c(O)c(c(/C=N/N5CCN(C6CCCC6)CC5)c(O)c4c3C2=O)NC(=O)/C(C)=C\C=C\[C@H](C)[C@H](O)[C@@H](C)[C@@H](O)[C@@H](C)[C@H](OC(C)=O)[C@@H]1C	Mycobacterium avium intracellulare	1296	-	-	MIC	-	0.5 µg/mL
CCN1CCc2c(sc(NC(=O)c3c(F)c(F)c(F)c(F)c3F)c2C(N)=O)C1	Mycobacterium abscessus	bolletii 103	resazurin / turbidity	-	EC90	-	>200 µM
CCc1cc(C(N)=S)ccn1	Mycobacterium smegmatis	MC^2 832	-	-	MIC	-	>80 µg/mL
COc1ccc2oc(=O)n(-c3ccc(Br)cc3)c(=S)c2c1	Mycobacterium kansasii	My 235/80	-	14 d	MIC	-	32 µM
O=C(NNC(=O)c1ccncc1)Nc1ccc(Br)cc1Br	Mycobacterium kansasii	My 6509/96	broth dilution	21 d	MIC100	-	>125 µM
CCOC(=O)c1c(NC(=O)c2c(F)c(F)c(F)c(F)c2F)sc2c1CCNC2	Mycobacterium abscessus	-	turbidity	-	EC90	-	1.7 µM
CCCCCCCNC(=O)NNC(=O)c1ccncc1	Mycobacterium kansasii	My 6509/96	broth dilution	21 d	MIC100	-	125 µM
O=c1[nH]c(=O)n([C@H]2C[C@H](F)[C@@H](CO)O2)cc1F	Mycobacterium avium	ATCC 25291	-	-	EC50	-	>50 µg/mL
NC[C@H]1O[C@H](O[C@H]2[C@H](O)[C@@H](O[C@H]3O[C@H](CO)[C@@H](O)[C@H](N)[C@H]3O)[C@H](N)C[C@@H]2N)[C@H](O)[C@@H](O)[C@@H]1O	Mycobacterium fortuitum	31 isolates	-	-	MBC90	-	>64 µg/mL
O=c1cc(-c2ccccc2)c2ccc(Cl)cc2o1	Mycobacterium chelonae	ATCC 35752	resazurin	-	MIC90	-	>100 µg/mL
CC(C)N=c1cc2n(-c3ccc(Cl)cc3)c3ccccc3nc-2cc1Nc1ccc(Cl)cc1	Mycobacterium scrofulaceum	-	fluorescence	-	MIC90	-	0.292 µg/mL
O=c1[nH]c(=O)n([C@H]2C[C@H](O)[C@@H](CO)O2)cc1CCO	Mycobacterium avium	ATCC 25291	-	-	EC50	-	>50 µg/mL
CCCCCCCCCCCCN(C(=O)Nc1ccc(F)cc1)[C@@H](CC(=O)OCC)C1O[C@@H]2OC(C)(C)O[C@@H]2[C@H]1Oc1ccccc1	Mycobacterium aurum	-	-	-	MIC	-	>25 µg/mL
C=C1C(=O)[C@@]23C(=O)O[C@H]4CCC(C)(C)[C@H]5C(=O)OC[C@@]45[C@@H]2CC[C@@H]1[C@H]3OC(=O)c1ccccc1	Mycobacterium phlei	ATCC 355	resazurin	-	MIC	-	1 µg/mL
C=C(C)[C@H](O)COc1c2ccoc2cc2oc(=O)ccc12	Mycobacterium aurum	-	-	-	MIC	-	64 µg/mL
O=c1oc2ccc(Br)cc2c(=S)n1-c1ccc(F)cc1	Mycobacterium kansasii	My 235/80	-	14 d	MIC	-	8 µM
Fc1cc(Br)ccc1Nc1nnc(-c2ccncc2)o1	Mycobacterium kansasii	My 6509/96	broth dilution	14 d	MIC100	-	>125 µM
CCOC(=O)C[C@@H](C1O[C@@H]2OC(C)(C)O[C@@H]2[C@H]1Oc1ccccc1)N(C(=O)Nc1ccc(Cl)cc1)C1CC1	Mycobacterium aurum	-	-	-	MIC	-	>25 µg/mL
O=C(NNC(=O)c1ccncc1)Nc1ccc(Br)c(F)c1	Mycobacterium kansasii	My 235/80	broth dilution	21 d	MIC100	-	>125 µM
CCCCCCCCCCCCN1C(=O)N(c2cccc(C(C)=O)c2)C(=O)C[C@H]1C1OC2OC(C)(C)OC2[C@H]1Oc1ccccc1	Mycobacterium aurum	-	-	-	MIC	-	>25 µg/mL
CC(C)(C)c1ccc(NC(=O)NNC(=O)c2ccncc2)cc1	Mycobacterium kansasii	My 6509/96	broth dilution	7 d	MIC100	-	32 µM
O=c1[nH]c(=O)n([C@@H]2O[C@H](CO)[C@@H](O)[C@H]2O)cc1/C=C/Br	Mycobacterium avium	ATCC 25291	-	-	EC50	-	>50 µg/mL
C=C1C(=O)[C@@]23C(=O)O[C@H]4CCC(C)(C)[C@H]5C(=O)OC[C@@]45[C@@H]2CC[C@@H]1[C@H]3OC(=O)c1cnccn1	Mycobacterium phlei	ATCC 355	resazurin	-	MIC	-	2 µg/mL
Fc1cc(Nc2nnc(-c3ccncc3)o2)ccc1Br	Mycobacterium kansasii	My 235/80	broth dilution	7 d	MIC100	-	>125 µM

For reference, 5 entries again:

| compound | organism | strain or isolate | read by | conditions | measure | tested at | result |
|---|---|---|---|---|---|---|---|
| CC(=O)c1c(O)c(C)c(O)c2c1OC1=CC(=O)C(C(C)=O)C(=O)[C@@]12C | Mycobacterium aurum | - | - | - | MIC | - | 32 µg/mL |
| C=C1C(=O)[C@@]23C(=O)O[C@H]4CCC(C)(C)[C@H]5C(=O)OC[C@@]45[C@@H]2CC[C@@H]1[C@H]3OC(=O)c1cc2ccccc2[nH]1 | Mycobacterium phlei | ATCC 355 | resazurin | - | MIC | - | 0.5 µg/mL |
| CO[C@H]1/C=C/O[C@@]2(C)Oc3c(C)c(O)c4c(=O)c(c5oc6cc(N7CCN(CC(C)C)CC7)cc(=O)c6nc5c4c3=C2O)NC(=O)/C(C)=C\C=C\[C@H](C)[C@H](O)[C@@H](C)[C@@H](O)[C@@H](C)[C@H](OC(C)=O)[C@@H]1C | Mycobacterium ulcerans | ATCC 19423 | - | - | MIC | - | 0.025 µg/mL |
| O=c1[nH]c(=O)n([C@H]2C[C@H](F)[C@@H](CO)O2)cc1Br | Mycobacterium avium | ATCC 25291 | - | - | EC50 | - | >50 µg/mL |
| CC(C)(C)c1ccc(NC(=O)NNC(=O)c2ccncc2)cc1 | Mycobacterium kansasii | My 6509/96 | broth dilution | 7 d | MIC100 | - | 32 µM |